A mixed list of measured activities; the numbers were collected in NIAID ChemDB.

All rows: growth or infection tests; species: Mycobacterium tuberculosis

Lines come from different laboratories, so protocols vary. ECn is the concentration giving n% inhibition of infection, replication or growth. A number after MIC or MFC names an inhibition level or a share of isolates. Percent inhibition refers to the dose given; in toxicity tests it is the harm to the cells. Blank or dashed fields: not listed here. MIC bound comes from a single tested concentration. a–b is a range or a potency band.

compound	strain	mutations	cell line	read by	read-out	dose	value
O=C(SCC1CS1)C(Cl)c1ccccc1	H37Rv				MIC		25 µg/mL
CCCCCOc1c(C(C)=O)cc(N)c2nccc(CC)c12	H37Rv				inhibition	6.25 µg/mL	99%
CCn1c(-c2cc3cc(Br)ccc3oc2=O)cs/c1=N\N=C\c1cc(Br)ccc1O	H37Rv				EC50		<12.5 µg/mL
O=c1[nH]c2c(Cl)c(Cl)ccc2c(O)c1N=Nc1ccccc1	H37Rv			resazurin	inhibition	6.25 µg/mL	85%
C[C@@H]1CC[C@H](C(C)(C)O)CC2=C1CC[C@H]2C	H37Rv			BACTEC	MIC bound		>128 µg/mL
CC(=O)c1cc([N+](=O)[O-])c2nc(C(C)C)ccc2c1C(C)C	Ethambutol-resistant				MIC		12.5 µg/mL
CN1c2ccccc2SC12C(=O)N(c1ccccc1)C(=O)N2c1ccccc1	H37Rv			BACTEC	MIC bound		>12.8 µg/mL
CCCCCCCOc1c(C(C)=O)cc([N+](=O)[O-])c2nccc(CC)c12	Isoniazid-resistant				MIC		6.25 µg/mL
Cc1cccc(N=Nc2c(O)c3ccccc3[nH]c2=O)c1	H37Rv			resazurin	inhibition	6.25 µg/mL	42%
CO[C@H]1/C=C/O[C@@]2(C)Oc3c(C)c(O)c4c(O)c(c5c(c4c3C2=O)NC2(CCN(C)CC2)N=5)=NC(=O)/C(C)=C\C=C\[C@H](C)[C@H](O)[C@@H](C)[C@@H](O)[C@@H](C)[C@H](OC(C)=O)[C@@H]1C	H37Rv			resazurin	MIC bound		<6.25 µg/mL
CCOc1cc(/C=N/N=c2\scc(-c3cc4ccccc4oc3=O)n2CC)ccc1O	H37Rv				inhibition	12.5 µg/mL	97%
COC(=O)c1ccc(Oc2cc(C=O)cc(OC)c2O)cc1	H37Rv				MIC		31.25–500 µg/mL
O=[N+]([O-])c1oc2ccc3ccccc3c2c1CCO	H37Rv		VERO		MIC		0.78 µg/mL
CCCCCCC(=O)Oc1ccc2c(c1)[nH]c1c(C)nccc12	H37Rv				inhibition	6.25 µg/mL	29%
O=C(O)CCc1cnc(C2C3CC4CC(C3)CC2C4)[nH]1	H37Rv				MIC		>6.25 µg/mL
O=C(OCC(S)CS)c1ccccc1Cl	H37Rv				MIC		25 µg/mL
Cn1c(=O)c(N=Nc2ccc(Cl)c(Cl)c2)c(O)c2ccccc21	H37Rv			resazurin	inhibition	6.25 µg/mL	10%
O=Cc1ccc(/C=N/NC(=O)c2ccncc2)cc1	H37Rv delta-katG	INH resistant		BACTEC	MIC99		>39.5 µM
O=C(Cc1ccccc1)OCC(S)CS	H37Rv				MIC		25 µg/mL
CCN(CC)CCOC(=O)C(C)Oc1c2ccoc2c(OC)c2oc(C)cc(=O)c12	H37Rv			BACTEC	MIC bound		>12.5 µg/mL
COc1cc(C=O)cc([N+](=O)[O-])c1Cc1cc(C=O)cc(OC)c1OC	H37Rv				MIC		125–250 µg/mL
NNC(=O)c1ccncc1	H37Rv			fluorescence / absorbance	EC50		0.63 µM
Cc1ccc(CSc2ccncc2)cc1	H37Ra				MIC		>12.8 µg/mL
COc1cc(CCN)cc(Oc2c(Cl)cc(CC(=O)O)cc2Cl)c1O	H37Rv				MIC		500 µg/mL
CN[C@@H]1[C@H](O[C@H]2[C@H](O[C@H]3[C@H](O)[C@@H](O)[C@H](N=C(N)N)[C@@H](O)[C@@H]3N=C(N)N)O[C@@H](C)[C@]2(O)C=O)O[C@@H](CO)[C@H](O)[C@H]1O	12119	Ofloxacin-resistant		broth dilution	MIC80		0.3 µM
Cc1nccc2c1[nH]c1cc(OS(C)(=O)=O)ccc12	H37Rv				inhibition	6.25 µg/mL	24%
COC(=O)Nc1cn2nc(N)sc2n1	H37Rv			BACTEC	MIC bound		>12.5 µg/mL
CCCCn1c(-c2cc3ccccc3oc2=O)cs/c1=N\N=C\c1ccc(Cl)cc1	H37Rv				MIC		>12.5 µg/mL
O.O=C(Cc1csc2nc(-c3ccccc3)cn12)NN1C(=O)CSC12CCCCC2	H37Rv		VERO		MIC		6.25 µg/mL
CC(=O)c1cc([N+](=O)[O-])c2nc(C(C)(C)C)ccc2c1C(C)(C)C	H37Rv				MIC		>6.25 µg/mL
COC(=O)CCc1cnc(C2CCCC2)[nH]1	H37Rv				MIC		>6.25 µg/mL
COc1ccc(CC(=S)N2CCOCC2)cc1Br	H37Rv				MIC		31.25 µg/mL
O=c1[nH]c2cc([N+](=O)[O-])ccc2c(O)c1N=Nc1ccc(Br)cc1	H37Rv			resazurin	MIC		<6.25 µg/mL
CC(=O)SCC(CSC(C)=O)SC(C)=O	H37Rv				MIC		1.6 µg/mL
Clc1ccc(Nc2cc3nc4ccccc4n(-c4ccc(Cl)c(Cl)c4)c-3cc2=NC2CCNCC2)cc1Cl	H37Rv				MIC		0.12 µg/mL
O=c1nc(SCc2ccc(Cl)cc2[N+](=O)[O-])c2[nH]cnc2[nH]1	H37Ra				MIC		>12.8 µg/mL
COc1ccc(C2Oc3c(c(O)cc4c3[C@@H](c3ccc(O)cc3O)[C@@H](O)C(c3ccc(O)c(O)c3)O4)C[C@H]2O)cc1O	H37Rv			BACTEC	inhibition	12.5 µg/mL	0%
CCOC(=O)CC(=O)SCC1CS1	H37Rv				MIC		3.125 µg/mL
CC1CO/C(=C2\C(=O)OCC2C)C1	H37Rv			BACTEC	MIC bound		>12.5 µg/mL
CCc1ccnc2c([N+](=O)[O-])cc(C(C)=O)c(OC(C)C)c12	Isoniazid-resistant				MIC		50 µg/mL
O=CSCCCC1CS1	H37Rv				MIC		3.125 µg/mL
CCC1CCC2(CC1)SCC(=O)N2NC(=O)Cc1csc2nc(-c3ccc(Cl)cc3)cn12	H37Rv				inhibition	6.25 µg/mL	0%
Cc1ccc(Sc2nc(Cl)nc3nc[nH]c23)cc1	H37Ra				MIC		>12.8 µg/mL
C[C@H]1COc2c(N3CCN(C)CC3)c(F)cc3c(=O)c(C(=O)O)cn1c23	158 strains				MIC		>16 µg/mL
CN(C)c1ccc(/C=N/NC(=O)C(=O)NCc2ccco2)cc1	H37Rv			BACTEC	inhibition	12.5 µg/mL	33%
CCOC(=O)c1cnc[nH]1	H37Rv				inhibition	6.25 µg/mL	21%
O=c1[nH]c2cc(Cl)ccc2c(O)c1N=Nc1ccc([N+](=O)[O-])cc1	H37Rv			resazurin	MIC		>6.25 µg/mL
CCOC(=O)c1cnc(C(C)(C)C)[nH]1	H37Rv				MIC		>6.25 µg/mL
O=C(Nc1ccc(Br)cc1)c1cnccn1	RMP-R				MIC		>12.5 µg/mL
Cc1cccc(CSc2ncccn2)c1	H37Rv				MIC90		>6.25 µg/mL
COC1=CC(=O)C(C2CC(=O)c3c(O)cc(O)cc3O2)=CC1=O	H37Rv			BACTEC	MIC bound		>12.5 µg/mL
Cc1ccc(Sc2ccncc2)cc1	H37Rv				inhibition	6.25 µg/mL	0%
Cc1ccc(N=Cc2cc(Cl)cc(Cl)c2OC(=O)c2ccccc2)cc1Cl	H37Rv			BACTEC	inhibition	12.5 µg/mL	0%
CC1CCC2(CC1)SC(C)C(=O)N2NC(=O)Cc1csc2nc(-c3ccc(Cl)cc3)cn12	H37Rv				EC50		<6.25 µg/mL
CC(C)N=c1cc2n(-c3ccc(Cl)cc3)c3ccccc3nc-2cc1Nc1ccc(Cl)cc1	2225 (SM INH RIF-RES)				MIC		0.5 µg/mL
Cc1nccc2c1[nH]c1cc(OC(=O)C(C)C)ccc12	H37Rv				inhibition	6.25 µg/mL	36%
Nc1ccc2ccc(N)nc2c1	H37Rv			BACTEC	inhibition	12.5 µg/mL	39%
CCN=c1cc2n(-c3ccc(Cl)cc3)c3ccccc3nc-2cc1Nc1ccc(Cl)cc1	2218 (SM INH THA-RES)				MIC		0.12 µg/mL
O=c1[nH]c2ccc(Cl)cc2c(O)c1N=Nc1ccc(F)cc1	H37Rv			resazurin	MIC		<6.25 µg/mL
CCCCCC(=O)Oc1ccc2c(c1)[nH]c1c(C)nccc12	H37Rv				EC50		>6.25 µg/mL
CC1SC2(CCCCC2)N(NC(=O)Cc2csc3nc(-c4ccccc4)cn23)C1=O.O.O	H37Rv		VERO		inhibition	6.25 µg/mL	98%
NNC(=O)CNc1ccc(Cl)cc1	H37Rv			BACTEC	MIC bound		>12.5 µg/mL
COc1cc(/C=C/[N+](=O)[O-])cc(Oc2ccc(CC(=O)O)cc2)c1O	H37Rv				MIC		500 µg/mL
COc1cccc(CSc2ccncc2)c1	H37Rv				MIC90		>6.25 µg/mL
CCCCCOc1c(C(C)=O)cc([N+](=O)[O-])c2nccc(CC)c12	H37Rv				inhibition	6.25 µg/mL	48%
COC(=O)c1ccc(Oc2cc(C(OC(C)=O)OC(C)=O)cc(OC)c2OC)cc1	H37Rv				MIC		1000 µg/mL
CC1SC2(CCCCC2)N(NC(=O)Cc2csc3nc(-c4ccc(Cl)cc4)cn23)C1=O	H37Rv				EC50		<6.25 µg/mL
NNC(=O)CCc1cnc(C2C3CC4CC(C3)CC2C4)[nH]1	H37Rv				MIC		>6.25 µg/mL
CCn1cc(C(=O)O)c(=O)c2cc(F)c(N3CCNC(C)C3)c(F)c21	11 strains (drug-resistant)				MIC50		1 µg/mL
NNC(=O)c1ccncc1	19000	Rifampicin-resistant		broth dilution	MIC80		0.2 µM
C[n+]1c(-c2ccc(NC(=O)c3ccc(C(=O)Nc4ccc(-c5cn6ccccc6[n+]5C)cc4)cc3)cc2)cn2ccccc21	H37Rv		VERO	BACTEC	MIC		6.25 µg/mL
COc1cc(/C=C/[N+](=O)[O-])cc(Br)c1OC	H37Rv				MIC		500 µg/mL
c1c[nH]c(Sc2ncnc3nc[nH]c23)n1	H37Rv				inhibition	6.25 µg/mL	32%
CO[C@H]1/C=C/O[C@@]2(C)Oc3c(C)c(O)c4c(O)c(c(/C=N/N5CCN(C)CC5)c(O)c4c3C2=O)NC(=O)/C(C)=C\C=C\[C@H](C)[C@H](O)[C@@H](C)[C@@H](O)[C@@H](C)[C@H](OC(C)=O)[C@@H]1C	12119	Ofloxacin-resistant		broth dilution	MIC80		0.04 µM
CC1CCC(=NNC(=O)Cc2csc3nc(-c4ccccc4)cn23)CC1	H37Rv				inhibition	6.25 µg/mL	40%
CC(=O)Nc1cccc2cccnc12	H37Rv				inhibition	6.25 µg/mL	0%
CO[C@H]1/C=C/O[C@@]2(C)Oc3c(C)c(O)c4c(O)c(c(/C=N/N5CCN(C)CC5)c(O)c4c3C2=O)NC(=O)/C(C)=C\C=C\[C@H](C)[C@H](O)[C@@H](C)[C@@H](O)[C@@H](C)[C@H](OC(C)=O)[C@@H]1C	INH-r			resazurin	MIC		0.05–0.1 µg/mL
CC(C)[C@H](NC(=O)CNC(=O)[C@@H]1CCCN1C(=O)[C@H](C)NC(=O)[C@@H](NC(=O)OC(C)(C)C)C(C)C)C(=O)NCC(=O)OCc1ccccc1	H37Rv			BACTEC	MIC bound		>12.5 µg/mL
Cc1cccc(Sc2ncccn2)c1	H37Rv				inhibition	6.25 µg/mL	0%
c1cc2c(cc1[C@H]1OC[C@H]3[C@@H]1CO[C@H]3c1ccc3c(c1)OCO3)OCO2	H37Rv			BACTEC	MIC bound		≤128 µg/mL
COC(=O)Cc1cc(N)c(Oc2cc(C(C(C)=O)C(C)=O)cc(OC)c2OC(C)=O)c(N)c1	H37Rv				MIC		1000 µg/mL
CN1[C@@H](CC(=O)c2ccccc2)CCC[C@H]1CC(=O)c1ccccc1.Cl	H37Rv			BACTEC	MIC		≥12.8 µg/mL
CC(=O)c1cc([N+](=O)[O-])c2ncccc2c1C1CCCC1	H37Rv				MIC		>6.25 µg/mL
CN(C)c1c([N+](=O)[O-])cc(N)cc1[N+](=O)[O-]	H37Rv			BACTEC	inhibition	12.5 µg/mL	25%
CCCCn1c(-c2cc3ccccc3oc2=O)cs/c1=N\N=C\c1ccc(O)c(OCC)c1	H37Rv				MIC		12.5 µg/mL
CCNCc1cc(Nc2nc(NC3CCC(N(C)C)CC3)c3ccccc3n2)ccc1OC.Cl.Cl.Cl	H37Rv			resazurin	MIC bound		>6.25 µg/mL
COc1c(C(C)=O)cc(N)c2nc(C(C)C)ccc12	H37Rv				MIC		>6.25 µg/mL

Repeating the first 12 entries:

compound,strain,mutations,cell line,read by,read-out,dose,value
O=C(SCC1CS1)C(Cl)c1ccccc1,H37Rv,,,,MIC,,25 µg/mL
CCCCCOc1c(C(C)=O)cc(N)c2nccc(CC)c12,H37Rv,,,,inhibition,6.25 µg/mL,99%
CCn1c(-c2cc3cc(Br)ccc3oc2=O)cs/c1=N\N=C\c1cc(Br)ccc1O,H37Rv,,,,EC50,,<12.5 µg/mL
O=c1[nH]c2c(Cl)c(Cl)ccc2c(O)c1N=Nc1ccccc1,H37Rv,,,resazurin,inhibition,6.25 µg/mL,85%
C[C@@H]1CC[C@H](C(C)(C)O)CC2=C1CC[C@H]2C,H37Rv,,,BACTEC,MIC bound,,>128 µg/mL
CC(=O)c1cc([N+](=O)[O-])c2nc(C(C)C)ccc2c1C(C)C,Ethambutol-resistant,,,,MIC,,12.5 µg/mL
CN1c2ccccc2SC12C(=O)N(c1ccccc1)C(=O)N2c1ccccc1,H37Rv,,,BACTEC,MIC bound,,>12.8 µg/mL
CCCCCCCOc1c(C(C)=O)cc([N+](=O)[O-])c2nccc(CC)c12,Isoniazid-resistant,,,,MIC,,6.25 µg/mL
Cc1cccc(N=Nc2c(O)c3ccccc3[nH]c2=O)c1,H37Rv,,,resazurin,inhibition,6.25 µg/mL,42%
CO[C@H]1/C=C/O[C@@]2(C)Oc3c(C)c(O)c4c(O)c(c5c(c4c3C2=O)NC2(CCN(C)CC2)N=5)=NC(=O)/C(C)=C\C=C\[C@H](C)[C@H](O)[C@@H](C)[C@@H](O)[C@@H](C)[C@H](OC(C)=O)[C@@H]1C,H37Rv,,,resazurin,MIC bound,,<6.25 µg/mL
CCOc1cc(/C=N/N=c2\scc(-c3cc4ccccc4oc3=O)n2CC)ccc1O,H37Rv,,,,inhibition,12.5 µg/mL,97%
COC(=O)c1ccc(Oc2cc(C=O)cc(OC)c2O)cc1,H37Rv,,,,MIC,,31.25–500 µg/mL